Measured values from several laboratories, pooled; numbers as filed in NIAID ChemDB.

Shared fields: growth or infection tests; organism: Mycobacterium tuberculosis

Rows are shuffled and stem from different studies. Inhibition is in % at the dose shown (toxicity tests: loss of growth or viability). An empty or dashed field is not shown. MIC50, MIC90 and the like: level of inhibition, or share of isolates inhibited. MIC bound: limit read from a one-dose screen. ECn is the concentration giving n% inhibition of infection, replication or growth.

structure	read-out	strain	conditions	cells	dose	read by	value
C/C(=N\NC(=O)c1ccncc1)c1ccccc1F	MBC	H37Rv	-	-	-	-	1.56 µg/mL
Fc1ccc(-c2c(C(c3ccccc3)n3ccnc3)cnn2-c2ccc(F)cc2)cc1	MIC90	ATCC 35820 (streptomycin-resistant)	-	-	-	-	≥100 µM
NC(=O)c1cnccn1	MIC	Isolate 10611 monodrug-resistant	-	-	-	-	>300 µg/mL
CO[C@H]1/C=C/O[C@@]2(C)Oc3c(C)c(O)c4c(O)c(c(/C=N/N5CCN(C)CC5)c(O)c4c3C2=O)NC(=O)/C(C)=C\C=C\[C@H](C)[C@H](O)[C@@H](C)[C@@H](O)[C@@H](C)[C@H](OC(C)=O)[C@@H]1C	MIC50	ATCC 35828 (pyrazinamide-resistant)	-	-	-	-	0.6 µM
CCC1(Br)C(=O)NC(=O)NC1=O	MIC bound	H37Rv	-	-	-	BACTEC	>12.5 µg/mL
CCOC(=O)c1ccc2nc(-c3ccccc3)[nH]c2c1	EC90	H37Rv	-	-	-	resazurin / fluorescence	>100 µM
CCCCCCCOc1cccc(NC(=O)OCC[NH+]2CCCC2)c1	MIC	My 331/88	-	-	-	-	32 µM
CCOC(=O)CN(/N=C/c1ccc([N+](=O)[O-])o1)C(N)=O	inhibition	H37Rv	-	-	12.5 µg/mL	BACTEC	18%
COc1c(O)cc2oc3cc(OC(C)=O)c(CCC(C)C)c(O)c3c(=O)c2c1CCC(C)C	MIC	H37Ra	-	-	-	resazurin	3.12 µg/mL
O=c1oc2ccc(Cl)cc2c(=O)n1-c1cccc(F)c1	MIC	CNCTC MY331/88	-	-	-	-	16 µM
COc1ccc(/C(=N\NC(=O)C(N)=O)C(c2ccc(OC)cc2)C2(O)C(=O)Nc3c(Cl)cccc32)cc1	MIC bound	H37Rv	-	-	-	BACTEC	≤12.5 µg/mL
O=c1oc2ccc(F)cc2c(=O)n1-c1ccc(Cl)c(Cl)c1	MIC	CNCTC MY331/88	-	-	-	-	8 µM
CCOc1ccccc1NC(=O)OCCN1CCOCC1	MIC	My 331/88	-	-	-	-	>1000 µM
Nc1ncnc2c1ncn2[C@@H]1O[C@H](CO)[C@@H](NC(=O)C(N)CCC(=O)O)[C@@H]1O	MIC bound	H37Rv	-	-	-	resazurin	>6.25 µg/mL
Fc1ccccc1-c1c(C(c2ccccc2)n2ccnc2)cnn1-c1ccccc1F	MIC50	ATCC 35820 (streptomycin-resistant)	-	-	-	-	≥100 µM
Cc1ccc(C)n1-c1ccsc1C(=O)NNC(=O)C(Cl)Cl	inhibition	H37Rv	-	-	12.5 µg/mL	BACTEC	20%
NNC(=O)c1ccncc1	MIC	Isolate 8	-	-	-	-	2 µg/mL
CC1=N/C(=C/c2ccc(Cl)cc2)C(=O)N1n1c(-c2ccccc2)nc2ccccc2c1=O	inhibition	H37Rv	-	-	12.5 µg/mL	BACTEC	75%
NNC(=O)c1ccncc1	MIC	Isolate B	-	-	-	-	0.031 µg/mL
C[N+]1([O-])[C@@H]2CC[C@H]1CC(OC(=O)C(CO)c1ccccc1)C2	inhibition	H37Rv	-	-	12.5 µg/mL	BACTEC	0%
CO[C@H]1/C=C/O[C@@]2(C)Oc3c(C)c(O)c4c(O)c(c(/C=N/N5CCN(C)CC5)c(O)c4c3C2=O)NC(=O)/C(C)=C\C=C\[C@H](C)[C@H](O)[C@@H](C)[C@@H](O)[C@@H](C)[C@H](OC(C)=O)[C@@H]1C	MIC	M6	-	-	-	resazurin	>2 µg/mL
CO[C@H]1/C=C/O[C@@]2(C)Oc3c(C)c(O)c4c(O)c(c(/C=N/N5CCN(C)CC5)c(O)c4c3C2=O)NC(=O)/C(C)=C\C=C\[C@H](C)[C@H](O)[C@@H](C)[C@@H](O)[C@@H](C)[C@H](OC(C)=O)[C@@H]1C	MIC	29197	-	-	-	-	≥2 µg/mL
O=c1c2cc([N+](=O)[O-])cnc2sn1-c1ccc([N+](=O)[O-])cc1	inhibition	H37Rv	-	-	6.25 µg/mL	resazurin	14%
CC(=O)NC[C@H]1CN(c2ccc(N3CCN(c4ccc([N+](=O)[O-])s4)CC3)c(F)c2)C(=O)O1	MIC	M-66	-	-	-	-	>32 µg/mL
C[C@H]1COc2c(N3CCN(C)CC3)c(F)cc3c(=O)c(C(=O)O)cn1c23	Mean MIC	206 isolates (susceptible)	-	-	-	-	0.549 µg/mL
C[C@H]1COc2c(N3CCN(C)CC3)c(F)cc3c(=O)c(C(=O)O)cn1c23	MIC	Isolate 7	-	-	-	-	4 µg/mL
COc1c(OCCCCBr)cc2oc3cc(OCCCCBr)c(CCC(C)C)c(O)c3c(=O)c2c1CCC(C)C	MIC	H37Ra	-	-	-	resazurin	200 µg/mL
O=C(NNCc1ccccc1F)c1ccncc1	EC90	Erdman	inside macrophages	Macrophages	-	colony count	0.28 µg/mL
COc1ccc2c(=O)n(-c3cccc(Cl)c3)c(=O)oc2c1	MIC	CNCTC MY331/88	-	-	-	-	8 µM
CCCCOc1cc2oc3cc(OCCCC)c(OC)c(CCC(C)C)c3c(=O)c2c(O)c1CCC(C)C	MIC	H37Ra	-	-	-	resazurin	>200 µg/mL
O=C1OCCSCCOCCSCCOC(=O)c2cncc1c2	inhibition	H37Rv	-	-	12.5 µg/mL	BACTEC	-19%
CCOC(=O)c1ccc2nc(-c3ccc(C(=O)O)cc3)[nH]c2c1	EC90	H37Rv	-	-	-	resazurin / fluorescence	>100 µM
Fc1ccc(-c2c(C(c3ccccc3)n3ccnc3)cnn2-c2ccc(F)cc2F)cc1	MIC90	ATCC 35822 (isoniazid-resistant)	-	-	-	-	≥100 µM
CCCCCOc1ccccc1NC(=O)OCCN1CCOCC1	MIC	My 331/88	-	-	-	-	62.5 µM
O=C(N/N=C/c1cccc(C(F)(F)F)c1)c1ccncc1	MIC	H37Rv (isoniazid-resistant)	-	-	-	-	>32 µg/mL
COc1ccccc1NC(=O)OCCN1CCCCC1	MIC	My 331/88	-	-	-	-	1000 µM
C[C@@H]1CN(c2c(F)c(N)c3c(=O)c(C(=O)O)cn(C4CC4)c3c2F)C[C@H](C)N1	MIC	Isolate 6	-	-	-	-	4 µg/mL
CCOC(=O)c1ccc2c(c1)nc(-c1ccc(C(=O)O)cc1)n2CCN1CCCOC1	EC50	H37Rv	-	-	-	resazurin / fluorescence	>100 µM
NNC(=O)c1ccncc1	MIC	PR1370	-	-	-	-	0.08 µg/mL
CO[C@H]1/C=C/O[C@@]2(C)Oc3c(C)c(O)c4c(=O)c(c5oc6cc(N7CCN(CC(C)C)CC7)cc(=O)c6nc5c4c3=C2O)NC(=O)/C(C)=C\C=C\[C@H](C)[C@H](O)[C@@H](C)[C@@H](O)[C@@H](C)[C@H](OC(C)=O)[C@@H]1C	MIC	2218 (MDR)	-	-	-	-	0.125 µg/mL
O=C(NNCc1ccccc1)c1ccncc1	MIC	Isoniazid-resistant	-	-	-	-	>6.25 µg/mL
CC[C@@H](CO)NCCN[C@@H](CC)CO	MIC	H37Rv	-	-	-	resazurin / fluorescence	>100 µM
c1ccc(-c2c(C(c3ccccc3)n3ccnc3)cnn2-c2ccccc2)cc1	MIC90	ATCC 35820 (streptomycin-resistant)	-	-	-	-	>100 µM
O=C(N/N=C/c1cccc(F)c1)c1ccncc1	MBC	Rifampicin-resistant	-	-	-	-	0.0125 µg/mL
CCCCCOc1cccc(NC(=O)OCC[NH+]2CCCC2)c1	MIC	My 331/88	-	-	-	-	62.5 µM
N#[N+]c1c([O-])ccc2nc3ccccc3nc12	MIC bound	H37Rv	-	-	-	BACTEC	≤12.5 µg/mL
CC1COc2c(N3CCN(C)CC3)c(F)cc3c(=O)c(C(=O)O)cn1c23	MIC	891868	-	-	-	-	1 µg/mL
CC(=O)Oc1cc2oc3cc(OC(C)=O)c(C(C)=O)c(CC=C(C)C)c3c(=O)c2c(O)c1CC=C(C)C	MIC	H37Ra	-	-	-	resazurin	12.5 µg/mL
Clc1ccc(-c2c(C(c3ccccc3)n3ccnc3)cnn2-c2ccc(Cl)cc2)cc1	MIC50	ATCC 35820 (streptomycin-resistant)	-	-	-	-	≥100 µM
CCOc1ccccc1NC(=O)OCCN1CCCCC1	MIC	My 331/88	-	-	-	-	>1000 µM
CN[C@@H]1[C@H](O[C@H]2[C@H](O[C@H]3[C@H](O)[C@@H](O)[C@H](N=C(N)N)[C@@H](O)[C@@H]3N=C(N)N)O[C@@H](C)[C@]2(O)C=O)O[C@@H](CO)[C@H](O)[C@H]1O	MIC50	ATCC 35828 (pyrazinamide-resistant)	-	-	-	-	0.1 µM
CCCCOc1ccccc1NC(=O)OCCN(C)C	MIC	My 331/88	-	-	-	-	500 µM
COc1cc2oc3cc(O)c(CCC(C)C)c(O)c3c(=O)c2c(CCC(C)C)c1OC	MIC	M-4	-	-	-	resazurin	1.56 µg/mL
NC(=N\N=C\c1ccc(Cl)c(Cl)c1)/C(N)=N/N=C/c1ccc(Cl)c(Cl)c1	inhibition	H37Rv	-	-	12.5 µg/mL	BACTEC	9%
CCOC(=O)c1ccc2c(c1)nc(-c1ccc(OC)cc1)n2CCN1CCCOC1	MIC	H37Rv	-	-	-	resazurin / fluorescence	>100 µM
CO[C@H]1/C=C/O[C@@]2(C)Oc3c(C)c(O)c4c(=O)c(c5oc6cc(N7CCN(CC(C)C)CC7)cc(=O)c6nc5c4c3=C2O)NC(=O)/C(C)=C\C=C\[C@H](C)[C@H](O)[C@@H](C)[C@@H](O)[C@@H](C)[C@H](OC(C)=O)[C@@H]1C	MIC	TN715	-	-	-	-	16 µg/mL
Fc1ccc(-c2c(C(c3ccccc3)n3ccnc3)cnn2-c2ccccc2)cc1	MIC50	ATCC 27294	-	-	-	-	≥100 µM
O=C1C(O)C(O)C(O)C(O)C1O	inhibition	H37Rv	-	-	12.8 µg/mL	BACTEC	5%
O=C(COc1cnccn1)N/N=c1\scc(-c2ccc(Cl)cc2)n1-c1ccc(Cl)cc1Cl	MIC	H37Rv	-	-	-	-	16 µg/mL
CCCCCCCOc1ccccc1NC(=O)OCC[NH+]1CCCC1	MIC	My 331/88	-	-	-	-	32 µM
O=C1C=C(Nc2ccc(Cl)cc2)c2ccccc2C1=O	MIC bound	H37Rv	-	-	-	resazurin	<6.25 µg/mL
CC(C)n1c(-c2ccccc2)cs/c1=N\NC(=O)COc1cnccn1	MIC	H37Rv	-	-	-	-	10 µg/mL
Cc1cc(=O)c2c([nH]1)c1c(c3[nH]c(C)cc(=O)c32)Oc2ccccc2O1	inhibition	H37Rv	-	-	12.5 µg/mL	BACTEC	99%
O=C(COc1cnccn1)N/N=c1\scc(-c2ccccc2)n1-c1ccc(Cl)cc1[N+](=O)[O-]	MIC	H37Rv	-	-	-	-	9 µg/mL
Nc1cc(=O)[nH]c(C(=O)O)n1	MIC bound	H37Rv	-	-	-	BACTEC	>12.5 µg/mL
C/C(=N\NC(=O)c1ccncc1)c1ccccc1	MIC	H37Rv	-	-	-	-	0.1 µg/mL
O=C(c1ccccc1)c1cnc2nc(-c3ccccc3)c(-c3ccccc3)nn12	MIC bound	H37Rv	-	-	-	BACTEC	>12.5 µg/mL
CCOC(=O)c1ccc2c(c1)nc(-c1ccc(N(C)C)cc1)n2CCN1CCCC1=O	MIC	H37Rv	-	-	-	resazurin / fluorescence	>100 µM
CO[C@H]1/C=C/O[C@@]2(C)Oc3c(C)c(O)c4c(O)c(c(/C=N/N5CCN(C6CCCC6)CC5)c(O)c4c3C2=O)NC(=O)/C(C)=C\C=C\[C@H](C)[C@H](O)[C@@H](C)[C@@H](O)[C@@H](C)[C@H](OC(C)=O)[C@@H]1C	MIC	Isolate 920492 rifampicin-resistant	-	-	-	-	>32 µg/mL
CCN(CC)CCCNc1ccc(C)c2sc3ccccc3c(=O)c12	MIC bound	H37Rv	-	-	-	BACTEC	≤12.5 µg/mL
CN[C@@H]1[C@H](O[C@H]2[C@H](O[C@H]3[C@H](O)[C@@H](O)[C@H](N=C(N)N)[C@@H](O)[C@@H]3N=C(N)N)O[C@@H](C)[C@]2(O)C=O)O[C@@H](CO)[C@H](O)[C@H]1O	MIC	50194	-	-	-	-	≥2 µg/mL
CCOC(=O)c1ccc2c(c1)nc(-c1ccc(Cl)cc1)n2CCN1CCCC1=O	MIC	H37Rv	-	-	-	resazurin / fluorescence	>100 µM
O=C1NCN(c2ccccc2)C12CCN(Cc1nc3cc([N+](=O)[O-])ccc3n1-c1ccccc1)CC2	inhibition	H37Rv	-	-	6.25 µg/mL	BACTEC	0%
Clc1ccccc1-c1c(C(c2ccccc2)n2ccnc2)cnn1-c1ccccc1	MIC90	ATCC 35828 (pyrazinamide-resistant)	-	-	-	-	89.2 µM
O=C(COc1cnccn1)N/N=c1\scc(-c2ccc(Cl)cc2)n1-c1ccc(Cl)cc1	MIC	H37Rv	-	-	-	-	11.5 µg/mL
O=c1oc2ccccc2c(=O)n1-c1cccc([N+](=O)[O-])c1	MIC	CNCTC MY331/88	-	-	-	-	16 µM
COc1cc2oc3cc(C)oc(=O)c3c2cc1OC	inhibition	H37Rv	-	-	12.5 µg/mL	BACTEC	34%
NC1[C@H]2CN(c3nc4c(cc3F)c(=O)c(C(=O)O)cn4-c3ccc(F)cc3F)C[C@@H]12	MIC90	206 isolates (susceptible)	-	-	-	-	64 µg/mL
COC(=O)NS(=O)(=O)c1cccs1	MIC bound	H37Rv	-	-	-	BACTEC	>12.5 µg/mL
CCOC(=O)c1ccc2c(c1)nc(-c1ccc(N3CCOCC3)cc1)n2CCN1CCCC1=O	EC50	H37Rv	-	-	-	resazurin / fluorescence	61.45 µM

Repeating the final 5 entries:

| structure | read-out | strain | conditions | cells | dose | read by | value |
|---|---|---|---|---|---|---|---|
| O=c1oc2ccccc2c(=O)n1-c1cccc([N+](=O)[O-])c1 | MIC | CNCTC MY331/88 | - | - | - | - | 16 µM |
| COc1cc2oc3cc(C)oc(=O)c3c2cc1OC | inhibition | H37Rv | - | - | 12.5 µg/mL | BACTEC | 34% |
| NC1[C@H]2CN(c3nc4c(cc3F)c(=O)c(C(=O)O)cn4-c3ccc(F)cc3F)C[C@@H]12 | MIC90 | 206 isolates (susceptible) | - | - | - | - | 64 µg/mL |
| COC(=O)NS(=O)(=O)c1cccs1 | MIC bound | H37Rv | - | - | - | BACTEC | >12.5 µg/mL |
| CCOC(=O)c1ccc2c(c1)nc(-c1ccc(N3CCOCC3)cc1)n2CCN1CCCC1=O | EC50 | H37Rv | - | - | - | resazurin / fluorescence | 61.45 µM |